Results published in patent US20120225135A1 (priority 2010, published 2012).

System: E. coli
Test: Washing of cut lettuce, E. coli
Conditions: old system, chlorine at 100-200 ppm dosed as sodium hypochlorite 12.5%

Question: With chlorine as the substance, how does the “E. coli on cut lettuce” value read?
Answer: not always zero
